Measured values from several laboratories, pooled; numbers as filed in NIAID ChemDB.

Shared fields: whole-cell or culture tests; agent: Cryptococcus neoformans

An empty or dashed field is not shown. Inhibition is in % at the dose shown (toxicity tests: loss of growth or viability). A number after MIC or MFC names an inhibition level or a share of isolates. Conditions beyond the fields shown may differ between rows. ECn is the concentration giving n% inhibition of infection, replication or growth.

| smiles | read-out | strain or isolate | tested at | read by | result |
|---|---|---|---|---|---|
| C=C1CO[C@H]2[C@@H](C)OC(OC[C@@]34C[C@H]5[C@H](C)CC[C@@H]5[C@@]5(C=O)C[C@@H]3C=C(C(C)C)[C@@]45C(=O)O)C[C@@H]12 | Mean MIC | 16 strains (serotype D) | - | - | 0.5 µg/mL |
| O=[N+]([O-])c1ccc(C=Nc2ccccc2O)cc1 | MIC99 | 5396 | - | - | 22.6 µg/mL |
| C[C@@H](c1nc(-c2ccc(C#N)cc2)cs1)[C@](O)(Cn1cnnc1)c1ccc(F)cc1F | MFC99 | A26037 | - | - | 0.06 µg/mL |
| CN[C@H]1CC[C@@H](c2ccc(Cl)c(Cl)c2)c2ccccc21 | MIC90 | 93BC2-52 | - | broth dilution | 3 µg/mL |
| NCCCC[C@H](NC(=O)[C@H](Cc1c[nH]c2ccccc12)NC(=O)[C@H](CCCCN)NC(=O)[C@@H](N)CCCCN)C(=O)O | inhibition | ATCC 32264 | 200 µM | - | 0% |
| CC1(C)O[C@H]2[C@H](O)[C@@H](N=[N+]=[N-])C=C(c3ccc(C=O)cc3)[C@H]2O1 | inhibition | ATCC 32264 | 250 µg/mL | broth dilution / turbidity | 61.84% |
| Oc1ccccc1C=Nc1ccccc1O | MIC | F-10 | - | broth dilution | 4 µg/mL |
| CCNC(=S)N/N=C(\N)c1ccccn1 | MIC100 | ATCC 62066 | - | - | >416.7 µM |
| Oc1ccccc1N=Cc1ccccc1 | MIC | 27JF | - | broth dilution | 5.7 µg/mL |
| C[C@H]([C@](O)(Cn1cncn1)c1ccc(F)cc1F)S(C)(=O)=O | EC50 | R718 (AZOLE-R) | - | - | 2 µM |
| Cn1nc(Cc2ccc(Cl)cc2)c2ccccc2c1=O | MFC | Clinical isolate (IM 983040) | - | broth dilution | 7.8 µg/mL |
| Cc1nc(NCCCCNc2ccnc3cc(Cl)ccc23)nc(-c2ccccc2)c1C(=O)OC(C)C | MIC99 | WP | - | - | 8 µg/mL |
| C[C@@H](n1ncn(-c2ccc(OCC(F)(F)C(F)F)cc2)c1=O)[C@](O)(Cn1cncn1)c1ccc(F)cc1F | MFC | DUMC 114.95 | - | - | 1 µg/mL |
| Oc1ccccc1N=Cc1ccc(O)c(O)c1O | MIC | 96806 | - | broth dilution | 11.3 µg/mL |
| CCC(C)CC(C)CCCCCCCCC(=O)N[C@H]1C[C@@H](O)[C@H](NCCN)NC(=O)[C@@H]2[C@@H](O)CCN2C(=O)[C@H]([C@H](O)CCN)NC(=O)[C@H]([C@H](O)[C@@H](O)c2ccc(O)cc2)NC(=O)[C@@H]2C[C@@H](O)CN2C(=O)[C@H]([C@@H](C)O)NC1=O | MIC | CBS 889 | - | broth dilution | 16 µg/mL |
| Oc1ccccc1N=Cc1cccc(O)c1O | MIC | C-3-1 | - | broth dilution | 2.8 µg/mL |
| C[C@@H](n1cnc2cc(Cl)ccc2c1=O)[C@](O)(Cn1cncn1)c1ccc(F)cc1F | MFC | Isolate 163.99 | - | - | >20 µg/mL |
| CC(C)N=C(N)c1ccc2nc(-c3ccc4c(c3)Cc3cc(-c5nc6ccc(C(N)=NC(C)C)cc6[nH]5)ccc3-4)[nH]c2c1 | Geometric mean MIC | 9 strains | - | - | 1.03 µg/mL |

The last 2 rows once more:

| smiles | read-out | strain or isolate | tested at | read by | result |
|---|---|---|---|---|---|
| C[C@@H](n1cnc2cc(Cl)ccc2c1=O)[C@](O)(Cn1cncn1)c1ccc(F)cc1F | MFC | Isolate 163.99 | - | - | >20 µg/mL |
| CC(C)N=C(N)c1ccc2nc(-c3ccc4c(c3)Cc3cc(-c5nc6ccc(C(N)=NC(C)C)cc6[nH]5)ccc3-4)[nH]c2c1 | Geometric mean MIC | 9 strains | - | - | 1.03 µg/mL |